The values that follow come from patent US20180002699.

The series concerns the target T1, full-length synthetic Tat protein (aa 1-72).
T1 chain: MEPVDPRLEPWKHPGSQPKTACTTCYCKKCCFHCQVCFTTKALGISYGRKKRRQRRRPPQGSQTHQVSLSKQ

B1: recombinant SMYD2 (SET and MYND domain containing-2 histone methyltransferase), wild type (protein)
chain: MRAEGLGGLERFCSPGKGRGLRALQPFQVGDLLFSCPAYAYVLTVNERGNHCEYCFTRKEGLSKCGRCKQAFYCNVECQKEDWPMHKLECSPMVVFGENWNPSETVRLTARILAKQKIHPERTPSEKLLAVKEFESHLDKLDNEKKDLIQSDIAALHHFYSKHLGFPDNDSLVVLFAQVNCNGFTIEDEELSHLGSAIFPDVALMNHSCCPNVIVTYKGTLAEVRAVQEIKPGEEVFTSYIDLLYPTEDRNDRLRDSYFFTCECQECTTKDKDKAKVEIRKLSDPPKAEAIRDMVRYARNVIEEFRRAKHYKSPSELLEICELSQEKMSSVFEDSNVYMLHMMYQAMGVCLYMQDWEGALQYGQKIIKPYSKHYPLYSLNVASMWLKLGRLYMGLEHKAAGEKALKKAIAIMEVAHGKDHPYISEIKQEIESH
Consider B1, for which the “in vitro methylation (3H-SAM, autoradiography)” value is on record as “Tat was methylated in response to SMYD2”.
